In paper PMC8605023:
Structures were worked out from names or drawings and are uncertain.

Chains of the proteins cited; added tags and fusions are not shown. Residues count along the entry.
UniProt Q93009, 63-205 limits assumed: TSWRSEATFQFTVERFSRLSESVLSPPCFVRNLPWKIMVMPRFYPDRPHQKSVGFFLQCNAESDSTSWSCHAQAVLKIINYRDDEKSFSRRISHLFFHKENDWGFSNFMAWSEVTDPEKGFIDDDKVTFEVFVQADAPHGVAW

Target: USP7 (Homo sapiens, UniProt Q93009)
Experiment: FP displacement assay, USP7
Type: binding

CSCC[C@H](NC(=O)[C@H](CO)NC(=O)[C@H](CC(N)=O)NC(=O)[C@H](CCC(N)=O)NC(=O)[C@H](CC(C)C)NC(=O)[C@H](Cc1ccc(O)cc1)NC(C)=O)C(=O)N[C@@H](CO)C(=O)NCC(=O)N[C@@H](C)C(=O)N[C@@H](CO)C(=O)N[C@@H](C)C(=O)N[C@@H](CC(=O)O)C(=O)N[C@@H](CO)C(=O)N[C@H](C(=O)N[C@@H](CCC(N)=O)C(=O)N[C@@H](C)C(N)=O)[C@@H](C)O
IC50 (FP displacement of 10 nM FITC-labeled probe, protein at 4 x KD of probe, 50 mM phosphate buffer pH 7.5): 690 µM | Ki displacement/Kd direct binding (Ki displacement, unlabelled peptide, phosphate buffer pH 7.5): 96 µM
